These results are taken from patent publication US12691114B2, “Compositions for inhibition of herpesviruses” (The Medical College of Wisconsin, Inc., priority 2020, dated 2026).

Common to all, as to format: cell-based, human cytomegalovirus
Data set [1] deals with pp28-luciferase Towne HCMV. The experiment in a line: Drug combination with GCV, pp28-luciferase Towne, Bliss model. The conditions noted are these: >1 synergy, <1 antagonism, =1 additive. Here is the method:
(§1) Drug combination and analysis: These experiments were performed as previously reported^40. The combination of GCV and each compound was tested using the pp28-luciferase. Briefly, 2×10^6 HFFs/plate were seeded in 96-well plates and infected with the pp28-luciferase Towne HCMV strain (MOI=1). First, a dose response curve was generated for each drug individually to determine its EC50. Then, drugs were combined at twice their EC50, diluted in DMEM with 4% FBS, followed by serial dilution and added together after infection. Luciferase activity of the combination and each drug individually was quantified at 72 hpi. The combination of letermovir and each of the new compounds was tested by the plaque assay using TB40. The same principle applied in this assay for the drug combination effect, and plaques were counted at 8 dpi. The Bliss model was used to calculate the effect of each drug combination on pp28-luciferase activity and plaque reduction. In this model, drug combination represents the product of two probabilistically independent events as described in the following equation^41.
(§2) [formula] Where D is the drug concentration, m is the slope, and EC50 is the effective concentration resulting in 50% virus inhibition. The combined effect of two inhibitors (Fu, fractional unaffected) is computed as the product of individual effects of the two inhibitors, Fu1 and Fu2. If the ratio of observed fold inhibition divided by the expected fold inhibition is greater than 1, the compounds are synergistic. If the ratio is less than 1, the combination is considered antagonistic, and if it equals to 1 the combination is additive.
Pattern of drug combination with GCV and letermovir: The effect of each compound alone or in combination with GCV or letermovir was tested in HCMV-infected HFFs. […] For letermovir and its combination with each of the five compounds the EC50 was determined based on plaque assay. […] All other combinations and Bliss coefficients were measured by pp28- luciferase.

The subject of data set [2] is HCMV TB40. The data set is described as follows: Plaque reduction assay, HCMV TB40 in HFFs. Particulars: slope parameter (analogous to the Hill coefficient) of the dose response. Here is the method:
Plaque reduction assay: HFFs were seeded into 12-well plates (2×10^5 cells/well) and infected with HCMV TB40 at approximately 100 plaques/well. After 90 min, media were aspirated, and DMEM containing 0.5% carboxymethyl-cellulose (CMC), 4% fetal bovine serum (FBS), and drugs were added into duplicate wells. Following incubation at 37° C. for 10-12 days the overlay was removed, and plaques were counted after crystal violet staining. For HSV1 and HSV2 replication in Vero cells, the adsorption time was 60 min and plaques were counted after 36 h. Plaque assays in MEFs were completed after 3 days.
Viral protein expression was measured by Western blot.
Background: Plaque reduction counts the foci of infection that form in a cell layer.

Data set [3] concerns HCMV TB40. The data set is described as follows: Drug combination with letermovir, plaque assay TB40, Bliss model. Particulars: >1 synergy, <1 antagonism, =1 additive. The procedure: as §1, §2
Pattern of drug combination with GCV and letermovir: The effect of each compound alone or in combination with GCV or letermovir was tested in HCMV-infected HFFs. […] A ratio of observed fold inhibition divided by the expected fold inhibition of >1 was considered drug synergy, <1 as drug antagonism, and =1 as additive. For letermovir and its combination with each of the five compounds the EC50 was determined based on plaque assay. The combination of GCV and 2955 was also tested by plaque assay. All other combinations and Bliss coefficients were measured by pp28- luciferase.

On to `Nc1c(S(=O)(=O)c2cccs2)c2nc3ccccc3nc2n1Cc1ccccc1` [MLS8091], for which the “Bliss Coefficient” value in data set [1] and in data set [3] was 1.3 each time. In data set [2], this compound displayed a Slope of 1.34 ± 0.1.
Consider `CC(C)NC(=O)C1CCN(C(=O)c2cc3sccc3n2Cc2ccc(Cl)cc2)CC1` [NCGC2955, 1-(4-(4-chlorobenzyl)-4H-thieno[3,2-b]pyrrole-5-carbonyl)-N-isopropylpiperidine-4-carboxamide], for which the Slope in data set [2] was determined as 0.80 ± 0.1. The “Bliss Coefficient” value in data set [3] is 1.09.
As to `CCc1ccc(NC(=O)[C@H](Cc2c[nH]c3ccccc23)NC(=O)[C@@H]2Cc3ccccc3CN2)cc1` [MLS8554], the figures for the “Bliss Coefficient” value in data set [1] and in data set [3] were 1.08 and 0.97, respectively. In addition, in data set [2], the Slope was 1.02 ± 0.1.
Regarding `CCN1CCN(CCCNC(=O)c2ccc3c(c2)sc2nc(-c4ccc(OC)cc4)cn23)CC1` [NFU1827, N-[3-(4-ethylpiperazin-1-yl)propyl]-4-(4-methoxyphenyl)-7-thia-2,5-diazatricyclo [6.4.0.02,6] dodeca-1(8),3,5,9,11-pentaene-10-carboxamide], the “Bliss Coefficient” value in data set [1] was 1.17; in data set [3], 1.2. This compound showed a Slope in data set [2] of 1.27 ± 0.1.
